A mixed list of measured activities; the numbers were collected in NIAID ChemDB.

Common to all: whole-cell or culture tests; species: Mouse cytomegalovirus; measure: EC50

Blank or dashed fields: not listed here. ECn is the concentration giving n% inhibition of infection, replication or growth. Neighbouring rows are from separate reports.

compound | cell line | strain | read by | value
COc1nc(N)nc2c1ncn2/C=C1/C[C@H]1CO | MEF | - | - | 0.4 µM
CN(C)c1cccc2c(S(=O)(=O)Nc3ccc(NC(=O)C(C)(C)CO)cc3)cccc12 | - | SMITH | plaque count | 0.049 µM
CCCCCSc1nc(N)nc2c1ncn2/C=C1/C[C@@H]1CO | MEF | - | plaque count | 1.4 µM
C=CCOc1nc(N)nc2c1ncn2/C=C1/C[C@@H]1CO | MEF | - | plaque count | 0.3 µM
Nc1ccn(C[C@@H](CO)OCP(=O)(O)O)c(=O)n1 | C1271 | SMITH | cytopathic effect | 0.1 µg/mL
OC[C@H]1O[C@@H](n2c(Br)nc3cc(Cl)c(Cl)cc32)[C@H](O)[C@@H]1O | HFF | SMITH (WILD TYPE) | plaque count | 31 µM
CCCCCCCC/C=C\CCCCCCCOCCCOP1(=O)CO[C@@H](Cn2ccc(N)nc2=O)CO1 | MEF | - | plaque count | 0.007 µM
Nc1nc2c(ncn2C=C2CC2CO)c(=O)[nH]1 | MEF | - | - | 0.3 µM
Nc1nc(NC2CC2)c2ncn(/C=C3/C[C@@H]3CO)c2n1 | MEF | - | plaque count | 0.1 µM
O=C(O)P(=O)(O)O | HFF | SMITH (WILD TYPE) | plaque count | 195 µM
O=C(NCc1ccc(Cl)cc1)c1c[nH]c2ccc(CCCO)cc2c1=O | - | - | plaque count | 1.6 µM
Nc1nc(OCC2CC2)c2ncn(/C=C3/C[C@@H]3CO)c2n1 | MEF | - | plaque count | 0.3 µM
Nc1nc2c(ncn2/C=C2/CC2(CO)CO)c(=O)[nH]1 | MEF | SMITH | plaque count | 0.3 µM
OC[C@H]1O[C@@H](n2c(Br)nc3cc(Cl)c(Cl)cc32)[C@H](O)[C@@H]1O | HFF | - | plaque count | 37 µM
O=C(O)CP(=O)(O)O | MEF | - | plaque count | 15.1 µg/mL
Nc1nc(NC2CC2)c2ncn(C=C3CC3CO)c2n1 | MEF | - | - | 0.37 µM
CN(C)c1cccc2c(S(=O)(=O)Nc3ccc(NC(=O)C(C)(C)CO)cc3)cccc12 | - | SMITH | plaque count | 0.049 µM
C=CCNc1nc(N)nc2c1ncn2/C=C1/C[C@@H]1CO | MEF | - | plaque count | 0.3 µM
CCCCCOc1nc(N)nc2c1ncn2/C=C1/C[C@@H]1CO | MEF | - | plaque count | 1.4 µM
Nc1nc2c(ncn2COC(CO)CO)c(=O)[nH]1 | HFF | - | plaque count | 1.1 µg/mL
CNc1cccc2c(S(=O)(=O)Nc3ccc(NC(=O)C(C)(C)CF)cc3)cccc12 | - | WILD TYPE | plaque count | 0.015 µM
Nc1ccn(C[C@H]2COP(=O)(O)CO2)c(=O)n1 | MEF | - | plaque count | 0.07 µM
CCCC(=O)OCC(CO)OCn1cnc2c(=O)[nH]c(N)nc21 | HFF | - | plaque count | 7.7 µg/mL
CCCOc1nc(N)nc2c1ncn2/C=C1/C[C@@H]1CO | MEF | - | plaque count | <0.1 µM
CCCCCCCC/C=C\CCCCCCCCOCCOP(=O)(O)CO[C@H](CO)Cn1ccc(N)nc1=O | MEF | - | plaque count | 0.004 µM
Nc1nc2c(ncn2COC(CO)COP(=O)(O)O)c(=O)[nH]1 | MRC-5 | SMITH | plaque count | 15.9 µM
COC(=O)[C@H](C)NP(=O)(OCC1C/C1=C/n1cnc2c(=O)[nH]c(N)nc21)Oc1ccccc1 | MEF | - | - | 3.3 µM
O[C@@H]1[C@H](O)[C@H](O)CO[C@H]1n1c(Br)nc2cc(Cl)c(Cl)cc21 | HFF | - | plaque count | 20 µM
Nc1nc2c(ncn2COC(CO)CO)c(=O)[nH]1 | MRC-5 | SMITH | plaque count | 6.2 µM
CNc1cccc2c(S(=O)(=O)Nc3ccc(NC(=O)C(C)(C)CO)cc3)cccc12 | - | WILD TYPE | plaque count | 0.033 µM
CC(=O)OCC(COC(C)=O)OCn1cnc2c(=O)[nH]c(N)nc21 | HFF | - | plaque count | 9.8 µg/mL
Nc1nc2c(ncn2COC(CO)CO)c(=O)[nH]1 | HFF | SMITH (WILD TYPE) | plaque count | 27.8 µM
C=CCNc1nc(N)nc2c1ncn2/C=C1/C[C@@H]1CO | MEF | - | plaque count | 0.3 µM
N/C(=N\O)c1cc(O)c(O)c(O)c1 | - | Drug-resistant | plaque count | 11.59 µM

The last 5 rows once more:

compound	cell line	strain	read by	value
CNc1cccc2c(S(=O)(=O)Nc3ccc(NC(=O)C(C)(C)CO)cc3)cccc12	-	WILD TYPE	plaque count	0.033 µM
CC(=O)OCC(COC(C)=O)OCn1cnc2c(=O)[nH]c(N)nc21	HFF	-	plaque count	9.8 µg/mL
Nc1nc2c(ncn2COC(CO)CO)c(=O)[nH]1	HFF	SMITH (WILD TYPE)	plaque count	27.8 µM
C=CCNc1nc(N)nc2c1ncn2/C=C1/C[C@@H]1CO	MEF	-	plaque count	0.3 µM
N/C(=N\O)c1cc(O)c(O)c(O)c1	-	Drug-resistant	plaque count	11.59 µM